Measured values from several laboratories, pooled; numbers as filed in NIAID ChemDB.

All rows: tests in culture; agent: Herpes simplex virus 2; endpoint: EC50

ECn: concentration that inhibits the pathogen or its effect by n%. Blank or dashed fields: not listed here. Rows are shuffled and stem from different studies.

structure	read by	cells	strain	result
Cc1cn([C@@H]2S[C@H](CO)C[C@H]2N=[N+]=[N-])c(=O)[nH]c1=O	-	-	-	>100 µg/mL
Oc1ccc([C@@H]2c3c(O)cc(O)cc3[C@H]3c4c(cc(O)cc4[C@@H]2[C@H]2c4cc(O)cc5c4[C@@H](c4cc(O)cc(O)c4[C@@H]2c2ccc(O)cc2)[C@H](c2ccc(O)cc2)O5)O[C@@H]3c2ccc(O)cc2)cc1	MTT	VERO	-	3.3 µM
CCc1cn([C@@H]2OC3COP(=O)(O)OC3[C@H]2O)c(=O)nc1N	-	-	196	>400 µg/mL
O=c1c2ncn(COCCO)c2nc2[nH]c(-c3ccccc3)c(Cc3ccc(F)cc3)n12	cytopathic effect	HEL	196	>16 µg/mL
[N-]=[N+]=N[C@H]1C[C@H](CO)S[C@H]1n1ccc(N)nc1=O	-	-	-	>100 µg/mL
O=C(NCc1ccc(Cl)cc1)c1cn2c3c(cc(CN4CCOCC4)cc3c1=O)OC(c1cccnc1)C2	plaque count	HFF	11361 (ACV-resistant)	>17.5 µM
Nc1ncc2c(ncn2/C=C2\CC2CO)n1	ELISA	-	-	>100 µM
Nc1nc2c(ncn2CCC(CO)CO)c(=O)[nH]1	ELISA	HEL	20 clinical isolates	2.2 µg/mL
CCNS(=O)(=O)OC[C@H]1O[C@@H](n2ccc(=O)[nH]c2=O)C(O)C1O	virus yield	VERO	-	25 µg/mL
CCCCCCc1cn([C@@H]2OC3COP(=O)(O)OC3[C@H]2O)c(=O)nc1N	-	-	G	>400 µg/mL
Nc1nc2c(ncn2COC2COP(=O)(O)OC2)c(=O)[nH]1	cytopathic effect / ELISA	HEL	R37	>25 µM
COc1cc(OC)c(NC(=S)Nc2ccc(NC=O)cc2Cl)cc1Cl	ELISA	HFF	186	27 µg/mL
Nc1nc2c(ncn2COCCO)c(=O)[nH]1	cytopathic effect	HFF	V60780 (acyclovir-resistant)	>50 µg/mL
Brc1ccc2cc(-c3ccccc3)cn2c1	plaque count	VERO	186	>100 µM
Oc1ccc([C@H]2c3c(O)cc(O)cc3[C@@H]3c4c(cc(O)c5c4[C@H]2[C@@H](c2cc(O)cc(O)c2)[C@@H]5c2ccc4c(c2)[C@@H](c2cc(O)cc(O)c2)[C@H](c2ccc(O)cc2)O4)O[C@H]3c2ccc(O)cc2)cc1	MTT	VERO	-	3.8 µM
CCCCCCCCCCCCCCCCOC(=O)NS(=O)(=O)OC[C@H]1O[C@@H](n2ccc(=O)[nH]c2=O)C2OC(C)(C)OC21	virus yield	VERO	-	25 µg/mL
CCCCCCCCc1cn([C@@H]2O[C@H](COP(=O)(O)O)[C@@H](O)[C@H]2O)c(=O)nc1N	-	-	196	>400 µg/mL
[N-]=[N+]=N[C@H]1C[C@@H](CO)S[C@@H]1n1cnc2c(N)ncnc21	-	-	-	>100 µg/mL
CCCCC(C)(C)[C@H](O)/C=C/[C@H]1C=CC(=O)[C@@H]1CCCCCCC(=O)O	hybridisation	HFF	G	5.7 µg/mL
Nc1nc2c(ncn2CC[C@@H](O)CO)c(=O)[nH]1	plaque count	VERO	B4327	11 µM
Oc1ccc([C@H]2c3c(O)cc(O)cc3[C@H]3c4c(cc(O)c5c4[C@H]2[C@@H](c2ccc(O)cc2)[C@@H]5c2cc(O)cc(O)c2)O[C@@H]3c2ccc(O)cc2)cc1	MTT	VERO	-	3.2 µM
O=C(O)CP(=O)(O)O	plaque count	MEF	Heeter	13.5 µg/mL
O=C(O[C@@H]1[C@@H]2C(=O)c3cc(O)c(O)c(O)c3-c3c(cc(O)c(O)c3O)C(=O)OC[C@H]2OC(O)[C@@H]1O)c1cc(O)c(O)c(O)c1	XTT	VERO	-	4.75 µg/mL
[N-]=[N+]=N[C@@H]1C[C@@H](CO)S[C@@H]1n1ccc(=O)[nH]c1=O	-	-	-	>100 µg/mL
OC1=CC2C3C(=C1)O[C@H](c1ccc(O)cc1)[C@@H]3c1cc(O)cc(O)c1[C@@H]2[C@@H](c1ccc(O)cc1)[C@H](c1ccc(O)cc1)[C@H]1c2c(O)cc(O)cc2[C@H]2C3C(=CC(O)=CC31)O[C@H]2c1ccc(O)cc1	MTT	VERO	-	3.3 µM
COc1cc(F)c([C@H]2C[C@H](O)[C@@H](CO)O2)cc1[N+](=O)[O-]	cytopathic effect	E6SM	G	>400 µg/mL
Nc1ccn(C[C@@H](CO)OCP(=O)(O)O)c(=O)n1	plaque count	HFF	Heeter	3 µg/mL
Nc1nc2c(ncn2CC[C@@H](O)CO)c(=O)[nH]1	plaque count	SIRC	91075	0.9 µM
O=C(OC1COC(=O)c2cc(O)c(O)c(O)c2-c2c(cc(O)c(O)c2O)C(=O)OC1C1OC(=O)c2cc(O)c(O)c(O)c2-c2c(O)c(O)c(O)c3c2C(=O)OC1C3O)c1cc(O)c(O)c(O)c1	XTT	VERO	-	3.6 µM
Nc1nc2c(ncn2CCC(O)CO)c(=O)[nH]1	cytopathic effect / ELISA	HEL	R37	8 µM
CC(=O)O[C@H]1O[C@@H](SC2=N/C(=C\c3ccccc3)C(=O)N2c2ccccc2)[C@H](OC(C)=O)[C@@H](OC(C)=O)[C@@H]1OC(C)=O	ELISA	VERO	MS	100 µM
[N-]=[N+]=N[C@H]1C[C@@H](CO)S[C@@H]1n1cnc2c(=O)[nH]cnc21	-	-	-	>100 µg/mL
Clc1ccc(-c2cc3ccccn3c2)c(Cl)c1	plaque count	VERO	186	>100 µM
Nc1nc(=O)n([C@H]2C[C@H](O)[C@@H](CO)O2)cc1F	virus yield	HeLa	-	<5 µM
OC[C@H]1O[C@@H](c2cc(F)c(F)cc2F)C[C@@H]1O	cytopathic effect	E6SM	G	>400 µg/mL
Nc1nc2c(ncn2C[C@]2(CO)C[C@H]2CO)c(=O)[nH]1	plaque count	MRC-5	6 isolates	0.15 µg/mL
CCCc1cn([C@@H]2O[C@H](COP(=O)(O)O)[C@@H](O)[C@H]2O)c(=O)nc1N	-	-	196	>400 µg/mL
Nc1ncc2c(ncn2/C=C2/CC2CO)n1	ELISA	-	-	>100 µM
O=C(O[C@@H]1[C@@H](c2c(O)cc(O)c3c2O[C@H](c2cc(O)c(O)c(O)c2)[C@H](OC(=O)c2cc(O)c(O)c(O)c2)C3)c2c(O)cc(O)cc2O[C@@H]1c1cc(O)c(O)c(O)c1)c1cc(O)c(O)c(O)c1	XTT	VERO	196	7.2 µM
CCO/N=C/c1ccc(OCCC2CCN(c3ccc(Cl)nn3)CC2)cc1	virus yield	KB	HGP	0.0004 µM
O=C(O)c1cccn2cc(-c3ccccc3)cc12	plaque count	VERO	186	>100 µM
Cn1cc(C(=O)NCc2ccc(Cl)cc2)c(=O)c2cc(CN3CCOCC3)ccc21	plaque count	HFF	11680 (ACV-resistant)	2.9 µM
Cc1cn([C@H]2C[C@H](O)[C@@H](CO)O2)c(=O)nc1N	virus yield	HeLa	-	<125 µM
Nc1nc2c(ncn2CCC(CO)CO)c(=O)[nH]1	hybridisation	MRC-5	Clinical isolate	0.5 µg/mL
N#Cc1ccn2cc(-c3ccccc3)cc2c1	plaque count	VERO	186	>100 µM
O=c1c2ncn(COCCO)c2nc2[nH]c(-c3ccc(C(F)(F)F)cc3)cn12	cytopathic effect	HEL	196	>16 µg/mL
OC[C@H]1O[C@H](c2ccc(F)cc2F)C[C@@H]1O	cytopathic effect	E6SM	LYONS	>400 µg/mL
COc1ccc(-c2[nH]c3nc4c(ncn4COCCO)c(=O)n3c2C)cc1	cytopathic effect	HEL	196	1.92 µg/mL
Cc1cn([C@@H]2S[C@@H](CO)C[C@@H]2N=[N+]=[N-])c(=O)[nH]c1=O	-	-	-	>100 µg/mL
Nc1nc2c(ncn2C[C@H](CO)CCO)c(=O)[nH]1	cytopathic effect / ELISA	HEL	R37	>100 µM
O=c1c2ncn(COCCO)c2nc2[nH]c(-c3ccccc3)c(Cc3ccccc3)n12	cytopathic effect	HEL	G	>16 µg/mL
Cc1ccc(Cc2c(O)cc(O)cc2[C@@H]2c3c(cc(O)cc3[C@H](C)[C@@H](c3ccc(O)cc3)c3c(O)cc(O)cc3C[C@H](Oc3cccc(O)c3)c3ccc(O)cc3)O[C@H]2c2ccc(O)cc2)cc1.O	MTT	VERO	-	3.2 µM
Nc1nc2c(ncn2CCCC(CO)CO)c(=O)[nH]1	plaque count	VERO	B4327	7 µM